The results in this text go back to PubChem BioAssay AID720641 (ICCB-Longwood Screening Facility, Harvard Medical School, 2013).

The entries are a selection whose mix differs from that of the whole data set. Calls of active or inactive are those of the source.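 The calls were made as follows: active = relative growth at most 50% at the other temperature and 20+ points below 30 °C, or under 10% at both; inactive = the rest, inconclusive results apart.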

The nature of the assay: Staphylococcus aureus RN4220 growth blockers – two temperatures, LtaS inhibitor project, primary screen (AID 720641). Particulars: S. aureus RN4220 growth, OD600, 20 h, 42 °C; active compounds read low.
`CN(C)P1(=O)Nc2ccccc2S1` (stereo unspecified): the relative growth is active: 1.43%.
